Pooled drug test results. Numbers come from NIAID ChemDB, via PubChem.

Common to all: enzyme or target tests; species: HIV-1; target: Protease

ICn is the concentration giving n% inhibition. Rows are shuffled and stem from different studies. An empty or dashed field is not shown.

compound,method,measure,setting,value
CNC(=O)NCCCC(C)(C)CN(C[C@@H](O)[C@H](Cc1ccccc1)NC(=O)O[C@H]1CO[C@H]2OCC[C@H]21)S(=O)(=O)c1ccc(OC)cc1,fluorescence,Ki,-,<0.001 µM
CCCCC1(CCc2cccc(NS(=O)(=O)c3ccc(C(F)(F)F)cn3)c2)COC(=O)C(C(CC)c2cccc(NS(=O)(=O)c3ccc(C(F)(F)F)cn3)c2)=C1O,-,IC50,-,0.023 µM
CC(C)C[C@H](NC(=O)[C@@H](N)CO)C(=O)N[C@@H](CC(N)=O)C(=O)N[C@@H](Cc1ccccc1)C(=O)Cc1ccccc1,substrate cleavage,IC50,-,>20 µM
C[C@@H](O)[C@H](NC(=O)c1cc(=O)c2ccccc2[nH]1)C(=O)N[C@@H](Cc1ccccc1)[C@H](O)[C@@H](O)[C@H](Cc1ccccc1)NC(=O)COc1ccccc1,substrate cleavage,IC50,-,0.0032 µM
C[C@@H]1CC[C@]2(C(=O)O)CC[C@]3(C)C(=CCC4[C@@]5(C)CC[C@H](OC(=O)CC(=O)O)C(C)(C)C5CC[C@]43C)C2[C@H]1C,HPLC,IC50,-,6 µM
CCCCC1(CCc2cccc(NS(=O)(=O)c3ccc(C)cc3)c2)COC(=O)C(C(CC)c2cccc(NS(=O)(=O)c3ccc(C)cc3)c2)=C1O,-,IC50,-,0.322 µM
CC(C)CC(=O)N1C[C@@H](O)[C@@H](Cc2ccccc2)N(Cc2cccc(N)c2)C(=O)N1Cc1cccc(N)c1,fluorescence,IC50,pH 4.5,<0.0005 µM
C=C(C)[C@@H]1CC[C@]2(C(=O)OC)CC[C@]3(C)[C@H](CC[C@@H]4[C@@]5(C)CC[C@H](O)C(C)(C)[C@@H]5CC[C@]43C)[C@@H]12,HPLC,IC50,-,>25 µM
COCC(=O)NCCC(C)(C)CN(C[C@@H](O)[C@H](Cc1ccccc1)NC(=O)O[C@H]1CO[C@H]2OCC[C@H]21)S(=O)(=O)c1ccc2c(c1)OCO2,fluorescence,Ki,-,<0.001 µM
CC(C)(C)NC(=O)[C@H]1N(C(=O)[C@@H](O)[C@H](Cc2ccccc2)NC(=O)CC(C)(C)C(=O)O)CSC1(C)C,-,IC50,-,<5 µM
COC(=O)[C@]12CC[C@@H](C)[C@H](C)[C@H]1C1=CC[C@@H]3[C@@]4(C)CC[C@H](O)C(C)(C)[C@@H]4CC[C@@]3(C)[C@]1(C)CC2,HPLC,IC50,-,14 µM
Cc1cc(O)c(C)c(C(=O)N[C@@H](Cc2cccc(F)c2)[C@H](O)C(=O)N2CC(F)(F)C(C)(C)[C@H]2C(=O)NCC(C)(C)C)c1,-,Ki,-,<0.0001 µM
CC1(C)CC[C@]2(C(=O)O)CC[C@]3(C)C(=CCC4[C@@]5(C)CC[C@H](OC(=O)CCC(=O)O)C(C)(C)C5CC[C@]43C)C2C1,HPLC,IC50,-,4 µM
COCCS(=O)(=O)NCCC(C)(C)CN(C[C@@H](O)[C@H](Cc1ccccc1)NC(=O)O[C@H]1CO[C@H]2OCC[C@H]21)S(=O)(=O)c1ccc2c(c1)OCO2,fluorescence,Ki,-,<0.001 µM
NC(=O)C[C@H](NC(=O)c1ccc2ccccc2n1)C(=O)N[C@@H](Cc1ccccc1)C(=O)Cc1ccccc1,substrate cleavage,IC50,-,100 µM
N/C(=N/O)c1cccc(CN2C(=O)N(Cc3ccc4[nH]ncc4c3)N(C(=O)CCc3ccccc3)C[C@@H](O)[C@H]2Cc2ccccc2)c1,fluorescence,IC50,pH 7.0,<0.0005 µM
COc1ccc(S(=O)(=O)N(C[C@@H](O)[C@H](Cc2ccccc2)NC(=O)O[C@H]2CO[C@H]3OCC[C@H]32)CC(C)(C)CCCN=[N+]=[N-])cc1,fluorescence,Ki,-,<0.001 µM
COc1cc(CN2C(=O)N(Cc3ccc(O)c(OC)c3)N(C(=O)CCc3ccoc3)C[C@@H](O)[C@H]2Cc2ccccc2)ccc1O,fluorescence,IC50,-,<0.0005 µM
CC(C)(CCNC(=O)C1CC1)CN(C[C@@H](O)[C@H](Cc1ccccc1)NC(=O)O[C@H]1CO[C@H]2OCC[C@H]21)S(=O)(=O)c1ccc2c(c1)OCO2,fluorescence,Ki,-,<0.001 µM
CC(=O)N[C@@H](Cc1c[nH]c2ccccc12)C(=O)N[C@H](C(=O)N[C@@H](Cc1ccccc1)[C@H](O)[C@@H](O)[C@H](Cc1ccccc1)NC(=O)[C@@H](NC(=O)[C@H](Cc1c[nH]c2ccccc12)NC(C)=O)C(C)C)C(C)C,substrate cleavage,IC50,-,0.006 µM
CCCCC1(CCc2cccc(NS(=O)(=O)c3ccc(OC)cc3)c2)COC(=O)C(C(CC)c2cccc(NS(=O)(=O)c3ccc(OC)cc3)c2)=C1O,-,IC50,-,0.825 µM
COC(=O)CCC(=O)NCCC(C)(C)CN(C[C@@H](O)[C@H](Cc1ccccc1)NC(=O)O[C@H]1CO[C@H]2OCC[C@H]21)S(=O)(=O)c1ccc2c(c1)OCO2,fluorescence,Ki,-,<0.001 µM
CCC(=O)O[C@@H](C/C=C(\C)C(=O)OC)C[C@H](OC(C)=O)[C@@H](CCCOC(=O)CC(C)C)OC(=O)CC(C)C,fluorescence,Ki,-,3.6 µM
COc1ccc(S(=O)(=O)N(C[C@@H](O)[C@H](Cc2ccccc2)NC(=O)O[C@H]2CCCO2)CC2(CCC#N)CCCC2)cc1,fluorescence,Ki,-,<0.001 µM
COc1ccc(CCC(=O)N2C[C@@H](O)[C@@H](Cc3ccccc3)N(Cc3ccc(O)c(OC)c3)C(=O)N2Cc2ccc(O)c(OC)c2)cc1,fluorescence,IC50,-,<0.0005 µM
CC(C)(C)OC(=O)N[C@@H](Cc1ccccc1)C(=O)O,substrate cleavage,IC50,-,550 µM
Cc1cn([C@@H]2C[C@@H](N=[N+]=[N-])[C@H](COC(=O)C(C)C(C)C(=O)N[C@@H](Cc3ccccc3)[C@H](O)C(=O)N3CSC(C)(C)[C@H]3C(=O)NC(C)(C)C)O2)c(=O)[nH]c1=O,-,IC50,-,<5 µM
O=[N+]([O-])c1ccc2c(c1)NCCC1(CCN(Cc3ccccc3)CC1)O2,absorbance,IC50,-,>10 µM
CC(C)(C)OC(=O)N[C@H](CN[C@@H](CC1CC1)C(=O)N[C@@H](CCC(=O)O)C(=O)NCCCc1ccc(F)cc1)Cc1ccccc1,HPLC,IC50,-,0.008 µM
C#CCOC(=O)NCCC(C)(C)CN(C[C@@H](O)[C@H](Cc1ccccc1)NC(=O)O[C@H]1CO[C@H]2OCC[C@H]21)S(=O)(=O)c1ccc2c(c1)OCO2,fluorescence,Ki,-,<0.001 µM
Cc1ccccc1CNC(=O)[C@H]1N(C(=O)[C@@H](O)[C@H](Cc2cccc(F)c2)NC(=O)c2cccc(O)c2C)CC(F)(F)C1(C)C,-,Ki,-,<0.0001 µM
CC(C)(CCCNC(=O)CCC1CCCC1)CN(C[C@@H](O)[C@H](Cc1ccccc1)NC(=O)O[C@H]1CO[C@H]2OCC[C@H]21)S(=O)(=O)c1ccc2c(c1)OCO2,fluorescence,Ki,-,<0.001 µM
C=C(C)[C@@H]1CC[C@]2(C(=O)O)CC[C@]3(C)[C@H](CC[C@@H]4[C@@]5(C)CC[C@H](O)C(C)(C)[C@@H]5CC[C@]43C)[C@@H]12,HPLC,IC50,-,9 µM
CC(C)[C@H](NC(=O)OCc1ccccn1)C(=O)N[C@@H](Cc1ccccc1)[C@@H](O)CN(Cc1ccccc1)NC(=O)OCc1cccnc1,fluorescence,IC50,-,<0.0005 µM
CON(C)C(=O)OCCC(C)(C)CN(C[C@@H](O)[C@H](Cc1ccccc1)NC(=O)O[C@H]1CO[C@H]2OCC[C@H]21)S(=O)(=O)c1ccc2c(c1)OCO2,fluorescence,Ki,-,<0.001 µM
Fc1ccc2c(c1)NCCC1(CCN(Cc3ccccc3)CC1)O2,absorbance,IC50,-,>10 µM
CC(C)c1nc(CN(C)C(=O)N[C@H](C(=O)NN(Cc2ccc(O)cc2)C[C@H](O)[C@H](Cc2ccccc2)NC(=O)OCc2cncs2)C(C)C)cs1,fluorescence,IC50,-,<0.0005 µM
COc1cc(CN2C(=O)N(Cc3ccc(O)c(OC)c3)N(C(=O)CC3CCCC3)C[C@@H](O)[C@H]2Cc2ccccc2)ccc1O,fluorescence,IC50,-,<0.0005 µM
CC(C)(C)OC(=O)N[C@@H](CC1CCCCC1)[C@@H](O)CC(=O)N[C@@H](CC(C)(C)C(=O)O)C(=O)NCCCc1ccccc1,HPLC,IC50,-,0.0094 µM
O=C(COc1ccccc1)N[C@@H](Cc1ccccc1)[C@H](O)[C@@H](O)[C@H](Cc1ccccc1)NC(=O)[C@@H](NC(=O)c1cc(=O)c2ccccc2[nH]1)C1CCCS1,substrate cleavage,IC50,-,0.009 µM
C=C(C)[C@@H]1CC[C@]2(C(=O)O)CC[C@]3(C)[C@H](CC[C@@H]4[C@@]5(C)CC[C@H](OC(=O)CC(=O)O)C(C)(C)C5CC[C@]43C)[C@@H]12,HPLC,IC50,-,6 µM
CC(C)(CCCNC(=O)NC(C)(C)C)CN(C[C@@H](O)[C@H](Cc1ccccc1)NC(=O)O[C@H]1CO[C@H]2OCC[C@H]21)S(=O)(=O)c1ccc2c(c1)OCO2,fluorescence,Ki,-,<0.001 µM
COc1cc(CN2C(=O)N(Cc3ccc(O)c(OC)c3)N(C(=O)CCc3ccc(OC)c(OC)c3)C[C@@H](O)[C@H]2Cc2ccccc2)ccc1O,fluorescence,IC50,-,<0.0005 µM
O/N=C1\CC2(CCN(Cc3ccccc3)CC2)Oc2ccc(OCc3ccccc3)cc21,absorbance,IC50,-,>10 µM
CC(C)(CCCCCNC(=O)c1ccco1)CN(C[C@@H](O)[C@H](Cc1ccccc1)NC(=O)O[C@H]1CO[C@H]2OCC[C@H]21)S(=O)(=O)c1ccc2c(c1)OCO2,fluorescence,Ki,-,<0.001 µM
Cc1ccc2c(c1)NCCC1(CCN(Cc3ccccc3)CC1)O2,absorbance,IC50,-,>10 µM
CC(C)(CCNC(=O)N1CCOCC1)CN(C[C@@H](O)[C@H](Cc1ccccc1)NC(=O)O[C@H]1CO[C@H]2OCC[C@H]21)S(=O)(=O)c1ccc2c(c1)OCO2,fluorescence,Ki,-,<0.001 µM
Cc1ccccc1CNC(=O)[C@@H]1CSCN1C(=O)[C@@H](O)[C@H](Cc1ccccc1)NC(=O)CC(C)(C)C(=O)OC[C@@H]1O[C@H](n2cc(C)c(=O)[nH]c2=O)C[C@H]1N=[N+]=[N-],-,IC50,-,>5 µM
COc1cc(CN2C(=O)N(Cc3ccc(O)c(OC)c3)N(C(=O)CCCC3CCCO3)C[C@@H](O)[C@H]2Cc2ccccc2)ccc1O,fluorescence,IC50,-,<0.0005 µM
CC[C@H](C)[C@H](NC(=O)[C@H](Cc1ccccc1)NC(C)=O)C(=O)N[C@@H](Cc1ccccc1)[C@H](O)[C@@H](O)[C@H](Cc1ccccc1)NC(=O)[C@H](CCC(=O)O)NC(=O)[C@H](Cc1ccccc1)NC(C)=O,substrate cleavage,IC50,-,0.012 µM
CCCCC1(CCc2cccc(NS(=O)(=O)c3ccccn3)c2)COC(=O)C(C(CC)c2cccc(NS(=O)(=O)c3ccccn3)c2)=C1O,-,IC50,-,0.03 µM
CC(C)(C)NC(=O)[C@@H]1CSCN1C(=O)[C@@H](O)[C@H](Cc1ccccc1)NC(=O)CCCC(=O)O,-,IC50,-,<5 µM
COc1ccc(CN(C[C@H](O)[C@H](Cc2ccccc2)NC(=O)[C@@H](NC(=O)OCc2ccccn2)C(C)C)NC(=O)OC(C)(C)C)cc1,fluorescence,IC50,-,~0.0005 µM
CC(C)OC(=O)NCCCCC(C)(C)CN(C[C@@H](O)[C@H](Cc1ccccc1)NC(=O)O[C@H]1CO[C@H]2OCC[C@H]21)S(=O)(=O)c1ccc2c(c1)OCO2,fluorescence,Ki,-,<0.001 µM
O=C(COc1ccccc1)N[C@@H](Cc1ccccc1)[C@@H](O)[C@H](O)[C@H](Cc1ccccc1)NC(=O)COc1ccccc1,substrate cleavage,IC50,-,2 µM
CN(C)C(=O)NCCCC(C)(C)CN(C[C@@H](O)[C@H](Cc1ccccc1)NC(=O)O[C@H]1CO[C@H]2OCC[C@H]21)S(=O)(=O)c1cccc2c1OCCO2,fluorescence,Ki,-,<0.001 µM
CC(C)[C@H](NC(=O)OCC1c2ccccc2-c2ccccc21)C(=O)N[C@@H](Cc1ccccc1)[C@H](O)[C@@H](O)[C@H](Cc1ccccc1)NC(=O)[C@@H](NC(=O)[C@H](Cc1c[nH]c2ccccc12)NC(=O)OC1c2ccccc2-c2ccccc21)C(C)C,substrate cleavage,IC50,-,4 µM
CC(C)NC(=O)OCCC(C)(C)CN(C[C@@H](O)[C@H](Cc1ccccc1)NC(=O)O[C@H]1CO[C@H]2OCC[C@H]21)S(=O)(=O)c1ccc2c(c1)OCO2,fluorescence,Ki,-,<0.001 µM
CC(C)c1nc(CN(C)C(=O)N[C@H](C(=O)NN(Cc2ccoc2)C[C@H](O)[C@H](Cc2ccccc2)NC(=O)OCc2cncs2)C(C)C)cs1,fluorescence,IC50,-,<0.0005 µM
C=CCCOC(=O)NCCCC(C)(C)CN(C[C@@H](O)[C@H](Cc1ccccc1)NC(=O)O[C@H]1CO[C@H]2OCC[C@H]21)S(=O)(=O)c1ccc2c(c1)OCO2,fluorescence,Ki,-,<0.001 µM
CCC(=O)O[C@H](C/C=C(\C)C(=O)OC)C[C@@H](OC(C)=O)[C@H](CCCOC(=O)CC(C)C)OC(=O)CC(C)C,fluorescence,Ki,-,4.2 µM